Results of unrelated studies side by side (data: NIAID ChemDB).

Shared fields: growth or infection tests; organism: Candida albicans; read-out: MIC50

MIC50, MIC90 and the like: level of inhibition, or share of isolates inhibited. Rows are shuffled and stem from different studies. An empty or dashed field is not shown.

| SMILES | strain | conditions | result |
|---|---|---|---|
| CN1CCN(c2ccc3nc(-c4ccc5nc(-c6ccc(O)cc6)[nH]c5c4)[nH]c3c2)CC1 | RO99 |  | 12 µM |
| COc1ccc(C(Cc2ccc(Cl)cc2Cl)C(c2ccc(OC)cc2)n2ccnc2)cc1 | 28 strains |  | 16 µg/mL |
| CCCCCCCCCCCCCCCC(=O)N[C@H]1C[C@@H](O)[C@@H](O)NC(=O)[C@@H]2[C@@H](O)[C@@H](C)CN2C(=O)[C@H]([C@@H](C)O)NC(=O)[C@H]([C@H](O)[C@@H](O)c2ccc(O)cc2)NC(=O)[C@@H]2C[C@@H](O)CN2C(=O)[C@H]([C@@H](C)O)NC1=O | FP578 |  | 0.008 µg/mL |
| N=C(N)N(CCCCCCCCCN=C(N)N)CCCCCCCN=C(N)N | 53T |  | 20 µM |
| CCC(C)CC(C)CCCCCCCCC(=O)N[C@H]1C[C@@H](O)[C@H](NCCN)NC(=O)[C@@H]2[C@@H](O)CCN2C(=O)[C@H]([C@H](O)CCN)NC(=O)[C@H]([C@H](O)[C@@H](O)c2ccc(O)cc2)NC(=O)[C@@H]2C[C@@H](O)CN2C(=O)[C@H]([C@@H](C)O)NC1=O | 10 isolates azole-resistant |  | 0.2 µg/mL |
| COc1ccc(C(Cc2cccc(Cl)c2)n2ccnc2)cc1 | 34 strains |  | 64 µg/mL |
| CCC(C)n1ncn(-c2ccc(N3CCN(c4ccc(OC[C@H]5CO[C@](Cn6cncn6)(c6ccc(Cl)cc6Cl)O5)cc4)CC3)cc2)c1=O | 58 strains |  | 0.06 µg/mL |
| COc1ccc(C(Cc2ccccc2F)n2ccnc2)cc1 | 34 strains |  | 64 µg/mL |
| C#CCNC(N)=NCCCCCCCN1CCCCCCCCN=C(N)NC1=O | 53T |  | 5 µM |
| COc1ccc([C@@H](Cc2ccc(Cl)cc2Cl)n2ccnc2)cc1 | 34 strains |  | 1 µg/mL |
| C[C@@H](c1nc(-c2ccc(C#N)cc2)cs1)[C@](O)(Cn1cnnc1)c1ccc(F)cc1F | 660 isolates |  | 0.008 µg/mL |
| CCC(c1ccc(OC)cc1)C(c1ccc(OC)cc1)n1cncn1 | 28 strains |  | 256 µg/mL |
| COC(/C=C/c1ccccc1)=C1/C(=O)C=C(C)C1=O | Isolate 2 azole-resistant |  | 0.9 µg/mL |
| CCC(c1ccc(OC)cc1)C(O)c1ccc(OC)cc1 | 28 strains |  | 256 µg/mL |
| N=C(N)N1CCN(Cc2cccnc2SCc2cc(F)cc(F)c2)CC1 | SC5314 CAI |  | 50 µg/mL |
| C[C@H]1[C@H](O)[C@@H](C)/C=C/C=C/C=C/C=C/C=C/C=C/C=C/[C@H](O[C@@H]2O[C@H](C)[C@@H](O)[C@H](N)[C@@H]2O)C[C@@H]2O[C@](O)(C[C@@H](O)C[C@@H](O)CC[C@H](O)[C@@H](O)C[C@@H](O)CC(=O)O[C@H]1C)C[C@H](O)[C@H]2C(=O)O | 10 isolates azole-resistant |  | 0.05 µg/mL |
| C=C(C)CN1C[C@H](OC[C@@]23C[C@@H]4[C@H](C)CC[C@H]4[C@@]4(C=O)C[C@@H]2CC(C(C)C)[C@@]34C(=O)O)O[C@H](C)C1 | 16 isolates/fluconazole resistant |  | 0.008 µg/mL |
| CC(=O)OCC1C=C(c2ccc(Br)cc2)C(=O)O1 | 16 isolates fluconazole-susceptible |  | 1 µg/mL |
| CCCCCCCCCCCCCCCC(=O)NC1CC(O)C(O)NC(=O)C2C(O)C(C)CN2C(=O)C(C(O)CC(N)=O)NC(=O)C(C(O)Cc2ccc(O)c(OS(=O)(=O)O)c2)NC(=O)C2CC(O)CN2C(=O)C(C(C)O)NC1=O | FP629 |  | 0.004 µg/mL |
| c1ccc(-c2c[nH]cc2C(c2ccc3ccccc3c2)n2ccnc2)cc1 | 33 strains |  | 4 µg/mL |
| N=C(N)N1CCN(Cc2cccnc2SCc2cccc(OC(F)(F)F)c2)CC1 | SC5314 CAI |  | 80 µg/mL |
| COc1ccc(C(Cc2ccc(Cl)cc2)n2cnnc2)cc1 | 28 strains |  | 64 µg/mL |
| Cn1cc(-c2ccccc2)c(C(c2cccc3ccccc23)n2ccnc2)c1 | 33 strains |  | 16 µg/mL |
| CC(C)=CCCNC(N)=NCCCCCCCCCNCCCCCCCN=C(N)N | 15T |  | 40 µM |
| N=C(N)N1CCN(Cc2cccnc2SCc2cccc(Cl)c2)CC1 | SC5314 CAI |  | 75 µg/mL |
| NC(N)=NCCCCCCCNCCCCCCCCCNC(N)=NCC1CC1 | 4T |  | 10 µM |
| OC(Cn1cncn1)(Cn1cncn1)c1ccc(F)cc1F | Isolate M27-T-micro | 48 h | 1.56 µg/mL |
| CC(C)C1C[C@H]2C[C@]3(C=O)[C@@H]4CC[C@@H](C)[C@H]4C[C@@]2(CO[C@H]2CN(C4CC4)C[C@@H](C)O2)[C@]13C(=O)O | 16 isolates |  | 0.015 µg/mL |
| CCC(c1ccc(Cl)cc1)C(c1ccc(OC)cc1)n1cncn1 | 28 strains |  | 32 µg/mL |
| COc1ccc(C(Cc2ccc(Cl)cc2)n2ccnc2)cc1 | 34 strains |  | 8 µg/mL |
| Cn1cc(-c2ccccc2)c(C(c2ccc(-c3ccccc3)cc2)n2ccnc2)c1 | 33 strains |  | 128 µg/mL |
| C=C(C)CN=C(N)NCCCCCCCN1CCCCCCCCN=C(N)NC1=O | 4T |  | 40 µM |
| N=C(N)N1CCN(Cc2cccnc2SCc2cccc(-c3ccccc3)c2)CC1 | SC5314 CAI |  | 20 µg/mL |
| Nc1[nH]c(=O)ncc1F | Fluconazole-resistant |  | 0.12 µg/mL |
| CCCCCOc1ccc(-c2cc(-c3ccc(C(=O)N[C@H]4C[C@@H](O)[C@@H](O)NC(=O)[C@@H]5[C@@H](O)[C@@H](C)CN5C(=O)[C@H]([C@H](O)CC(N)=O)NC(=O)[C@H]([C@H](O)[C@@H](O)c5ccc(O)c(OS(=O)(=O)O)c5)NC(=O)[C@@H]5C[C@@H](O)CN5C(=O)[C@H]([C@@H](C)O)NC4=O)cc3)no2)cc1 | 37 isolates |  | 0.0078 µg/mL |
| c1ccc(-c2c[nH]cc2C(c2cccc3ccccc23)n2ccnc2)cc1 | 33 strains |  | 4 µg/mL |
| COc1ccc(C(C(Cc2ccc(Cl)cc2Cl)c2ccc(Cl)cc2)n2cncn2)cc1 | 28 strains |  | 256 µg/mL |
| c1ccc(-c2ccc(C(c3c[nH]cc3-c3ccccc3)n3ccnc3)cc2)cc1 | 33 strains |  | 12 µg/mL |
| CC(=O)OCC1C=C(c2ccc(Cl)c(Cl)c2)C(=O)O1 | 16 isolates fluconazole-susceptible |  | 2 µg/mL |
| N=C(N)N1CCN(Cc2cccnc2SCc2cc(Br)cc(Br)c2)CC1 | SC5314 CAI |  | 9.4 µg/mL |
| C=C=CCN1C[C@H](OC[C@@]23C[C@@H]4[C@H](C)CC[C@H]4[C@@]4(C=O)C[C@@H]2CC(C(C)C)[C@@]34C(=O)O)O[C@H](C)C1 | 16 isolates |  | 0.015 µg/mL |
| N#Cc1ccc(CSc2ncccc2CN2CCN(C(=N)N)CC2)cc1 | SC5314 CAI |  | >100 µg/mL |
| CC[C@@H]([C@H](C)O)n1ncn(-c2ccc(N3CCN(c4ccc(OC[C@@H]5CO[C@@](Cn6cncn6)(c6ccc(F)cc6F)C5)cc4)CC3)cc2)c1=O | 10 strains (fluconazole-resistant) |  | 0.5 µg/mL |

Repeating the first 6 entries:

SMILES | strain | conditions | result
CN1CCN(c2ccc3nc(-c4ccc5nc(-c6ccc(O)cc6)[nH]c5c4)[nH]c3c2)CC1 | RO99 |  | 12 µM
COc1ccc(C(Cc2ccc(Cl)cc2Cl)C(c2ccc(OC)cc2)n2ccnc2)cc1 | 28 strains |  | 16 µg/mL
CCCCCCCCCCCCCCCC(=O)N[C@H]1C[C@@H](O)[C@@H](O)NC(=O)[C@@H]2[C@@H](O)[C@@H](C)CN2C(=O)[C@H]([C@@H](C)O)NC(=O)[C@H]([C@H](O)[C@@H](O)c2ccc(O)cc2)NC(=O)[C@@H]2C[C@@H](O)CN2C(=O)[C@H]([C@@H](C)O)NC1=O | FP578 |  | 0.008 µg/mL
N=C(N)N(CCCCCCCCCN=C(N)N)CCCCCCCN=C(N)N | 53T |  | 20 µM
CCC(C)CC(C)CCCCCCCCC(=O)N[C@H]1C[C@@H](O)[C@H](NCCN)NC(=O)[C@@H]2[C@@H](O)CCN2C(=O)[C@H]([C@H](O)CCN)NC(=O)[C@H]([C@H](O)[C@@H](O)c2ccc(O)cc2)NC(=O)[C@@H]2C[C@@H](O)CN2C(=O)[C@H]([C@@H](C)O)NC1=O | 10 isolates azole-resistant |  | 0.2 µg/mL
COc1ccc(C(Cc2cccc(Cl)c2)n2ccnc2)cc1 | 34 strains |  | 64 µg/mL